Data from article PMC4239114.

The chains behind the UniProt entries cited, without tags or fusion partners. Where a name states a change or a piece, a line headed by the entry shows the natural chain unless it says otherwise.
UniProt B7UI22: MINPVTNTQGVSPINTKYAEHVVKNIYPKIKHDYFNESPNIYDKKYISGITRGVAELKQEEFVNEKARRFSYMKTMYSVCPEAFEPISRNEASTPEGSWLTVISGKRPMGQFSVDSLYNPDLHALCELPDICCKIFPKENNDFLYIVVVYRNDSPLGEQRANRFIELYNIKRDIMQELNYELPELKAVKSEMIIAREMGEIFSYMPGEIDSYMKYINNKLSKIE

Biological target: NleE (Escherichia coli, UniProt B7UI22)
Assay: 3H-SAM labelling of GST-NZF proteins; native-PAGE methylation assay
Settings: labelled compound; methyl acceptors TAB2-NZF, TAB3-NZF, ZRANB3-NZF and Vps36-NZF; native-PAGE assay with 0.8 mM SAM, pH 7.5, 37 C

SMILES: C[S+](CC[C@H](N)C(=O)O)C[C@H]1O[C@@H](n2cnc3c(N)ncnc32)[C@H](O)[C@@H]1O (stereo partly shown)
- 3H-SAM labelling of GST-NZF proteins; native-PAGE methylation assay: ^3H-SAM labeling assay of NleE methylation of different GST-NZFs
